Columns and labels:
[1] = system: CCCC(=O)SCCNC(=O)CCNC(=O)[C@H](O)C(C)(C)COP(=O)(O)OP(=O)(O)OC[C@H]1O[C@@H](n2cnc3c(N)ncnc32)[C@H](O)[C@@H]1OP(=O)(O)O; assay: purified protein; conditions: pH 7.2; 25.0 °C
[2] = system: CCCCC(=O)SCCNC(=O)CCNC(=O)[C@H](O)C(C)(C)COP(=O)(O)OP(=O)(O)OC[C@H]1O[C@@H](n2cnc3c(N)ncnc32)[C@H](O)[C@@H]1OP(=O)(O)O; assay: purified protein; conditions: pH 7.2; 25.0 °C

TrzAMtb (Rv1356c) (Mycobacterium tuberculosis H37Rv)
Km [1]: 85 ± 10 µM | Km [2]: 23 ± 3 µM
